Library screen at single concentrations

Source: ChEMBL document CHEMBL3988442, “University of Dundee, Small-Polar-MMV Screening Library” (2021).

Mtb glucose medium: 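Whole-cell growth test on Mycobacterium tuberculosis, read after 3 days in glucose-containing 7H9 medium; the read-out is not stated. Tested at 50 µM. The record gives no direction; compounds that gave an IC50 in retests scored well above the rest, so higher reads as more growth inhibition. Size under these conditions: about 69,000 compounds, about 760 of them at 50% or above in at least one test.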
Mtb cholesterol medium: 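Whole-cell growth test on Mycobacterium tuberculosis, read after 4 days in a medium based on cholesterol and the lipid DPPC; the read-out is not stated. Compounds at 50 µM. Direction is inferred from retests: higher values go with more growth inhibition. About 69,000 compounds were tested under these conditions; 0.54% (about 370) showed 50% or more at least once.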

Values are the deposited “Percent Effect”, in %.
The controls that fix the scale are not given in the record; negative values are as filed.
The entries come from a sample that favours strong results.
Two or more numbers in one place are separate tests of the same structure; such repeats can differ widely.
A dash means the value is not listed here; it may have been measured.

structure,Mtb glucose medium,Mtb cholesterol medium
CCCS(=O)(=O)NCC(C)c1ccc(F)c(F)c1 (stereo not given),18.35 and 14.48,-6.74
CS(=O)(=O)NC1CCN(C(=O)NCCNc2ccccn2)CC1,-,-21.77
CN(CCc1cn[nH]c1)Cc1nc(Cc2cccc(F)c2)no1,-,-7.694
Cc1ccc(-c2n[nH]cc2CNCC2CCN(CC(F)(F)F)C2)o1.Cl (stereo not given),17.92 and 9.944,-5.182
O=C(O)C(F)(F)F.O=C1COC2(CCN(c3ccccn3)CC2)CN1,65.4,-
O=C(c1coc(COc2cccc3cnccc23)n1)N1CCCCCC1,-2.957 and -8.657,10.93 and -9.499
NC(=O)c1ccc(-n2ccnc2C2CC2)cc1N1CCCC1,-,-7.667
CCc1cc(=O)[nH]c(-c2ccc(NCCc3ccc(O)cc3)nc2)n1,43.22,3.713
c1ccc(-c2nc3c(c(NCCc4c[nH]cn4)n2)CCNC3)cc1,45.61 and 66.85,-
O=C(CCN1CCCC(CO)(CC2CC2)C1)NC1CCCCC1 (stereo not given),-7.645,-
COCCNc1nc(-c2ccc(S(=O)(=O)N3CCCCC3)cc2)cs1,-11.39,-4.875
COc1ccnc(CN2CCCC(CCc3ccc(F)cc3)C2)c1OC (stereo not given),67.17 and 55.65,-
COCC(=O)Nc1nnc2n(Cc3cccc(OC)c3)[nH]c(C)c1-2,-1.489 and 4.843,-
Cc1nn(C)c(C)c1S(=O)(=O)NCCn1ccc(-c2cccs2)n1,-12.35,-
CN(C)CCNC(=O)C1Cc2nc(-c3ccccc3)sc2N1CC1CC1.O=C(O)C(F)(F)F (stereo not given),60.4,-
Cc1ccccc1CN(C)CC(O)COCc1ccccc1Cl (stereo not given),-52.38,-
[H][C@@]12CCCN1CCCN(c1nc(C(C)(C)C)nc3c1cnn3C)C2,56.93,-
Cc1cccc(N2CCC3(CCCC(=O)N3)CC2)n1.O=C(O)C(F)(F)F,-,73.8
NC1(c2nc(-c3ccccc3)cc(=O)[nH]2)CCCC1,-31.47 and 0.8318,-9.553
O=c1[nH]cnc2c1CCN(S(=O)(=O)c1ccc(Cl)cc1)C2,11.43,-
CN(Cc1ccncc1)C(=O)NCc1cn(-c2ccccc2)nn1,-12.4,-
COc1ccc(CC(=O)Nc2c(C)nc(N3CCOCC3)nc2C)cc1,-0.9237 and 35.1,-
Br.Cc1ccc(N(CC(=O)c2ccc(Br)cc2)C2=NCCCCC2)cc1,95.67 and 90.3,89.71
N#Cc1cnc2cc(F)cc(F)c2c1NC1CCN(CC(N)=O)CC1,110.5 and -4.128,-
Cc1cc(-n2cncn2)ccc1C(=O)N(CC(F)(F)F)C(C)C,-21.05,-
Cc1ccoc1C(=O)N1CCC(n2cc(-c3ccsc3)nn2)CC1,-,69.42
Cc1ccc(N2CCN(C(=O)CCC(F)(F)F)C(C)C2)cc1 (stereo not given),40.58 and 61.74,-
COCc1nn(Cc2ccc(Cl)s2)c(=O)o1,37.31,37.94
[H][C@]12CC[C@@]([H])(C1)N(Cc1cc(-c3ccccc3)no1)C2,25.3,22.19 and 41.73
CN1Cc2ccccc2NC(=O)C12CCNC2 (stereo not given),21.54,-
Cl.O=c1c2sccc2nc2n1CCN(Cc1ccsc1)CC2,9.027,11.23
CO[C@H]1CCN(c2nnc(C)s2)C[C@@H]1Cc1ccccc1.O=C(O)C(F)(F)F,34.59 and 46,38.17
CC(C)Cc1nc(CN(C)CCOc2ccccc2F)no1,-16.83,-
COc1cccc(-c2noc(-c3ccc(NCC(C)O)nc3)n2)c1OC (stereo not given),63.19,-
O=C(O)C(F)(F)F.O=C(O)C(F)(F)F.[H][C@]12C[C@@H](CN3CCCC3)N(C)[C@@]1([H])CCN(C(=O)c1cccn1C)C2,-,117.3
Cc1cnn(C2CCCN(C(=O)Cc3ccc(-n4cccn4)cc3)C2)c1 (stereo not given),-,2.191
CNc1nc(C(=O)NCC2CCOc3ccccc3C2)cs1 (stereo not given),-0.6202 and 7.997,-13.87
N#Cc1cccnc1N1CCC(OCCc2ccccc2)CC1,15.25,-
O=C(C1CCC1)N1CCC2(CCN(Cc3cccc(F)c3)CC2)CC1.O=C(O)C(F)(F)F,-5.331 and -40.93,-8.465
Cc1nnc(N2CC[C@@H](OCC3CC3)[C@@H](Cc3ccccc3)C2)s1.O=C(O)C(F)(F)F,49.11 and 60.38,34.21
CN(Cc1nc(Cc2cccc(C(F)(F)F)c2)no1)C1CCOCC1,14.39 and 21.78,-
O=C(Nc1ccc(F)c(Cl)c1)N1CCCN([C@H]2COC[C@@H]2O)CC1,-20.39,0.7283
COc1ccccc1N1CCC(CNCc2cccc(OC)c2OC)C1 (stereo not given),54.67,-
CC(C)c1cc(C(=O)N2CCN(Cc3ccc(C#N)cc3)CC2)n[nH]1,22.34 and 5.652,-
CC(C)(CNC(=O)CSc1nnnn1C1CC1)c1ccccc1F,-2.892 and -1.479,-
O=C(NCCn1ccnc1)c1ccn(-c2ccccc2)n1,-16.45,-28.6
COCCCNC(=O)c1cc(C(C)C)nc(N2CCCC2)n1,-3.17,-
Cc1cc(N(C)CCN(C)C)n2nc(C)cc2n1,29.83,-
O=C(c1cn(-c2ccccc2)nn1)N1CCOCC(O)C1 (stereo not given),-,51.2
Cc1ccccc1SCC(=O)NC1CCC(O)CC1 (stereo not given),-15.31,-
O=C(O)c1ccc(N2CCC(Oc3ccc(Cl)cc3)CC2)nc1,3.926,4.26
CC(C)Oc1ccc(CN2CCN3CCN(C)CC3C2)cc1CO (stereo not given),-4.088 and -1.347,-
CS(=O)(=O)CCN1CCC(=Cc2ccccc2)CC1,18.6,-2.791
Cc1ccc(OCCN2CCC(c3ccnn3CCO)CC2)cc1,4.483,-

The first 3 entries again:

| structure | Mtb glucose medium | Mtb cholesterol medium |
|---|---|---|
| `CCCS(=O)(=O)NCC(C)c1ccc(F)c(F)c1` (stereo not given) | 18.35 and 14.48 | -6.74 |
| `CS(=O)(=O)NC1CCN(C(=O)NCCNc2ccccn2)CC1` | - | -21.77 |
| `CN(CCc1cn[nH]c1)Cc1nc(Cc2cccc(F)c2)no1` | - | -7.694 |